How the values were obtained:
[1] = molecular target: T1, Human immunodeficiency virus type 1 integrase (Human immunodeficiency virus 1, UniProt Q7ZJM1); experiment: Inhibitory concentration of compound against 3'-processing of HIV-1 integrase in experiment 1
[2] = molecular target: T1, Human immunodeficiency virus type 1 integrase; experiment: Inhibitory concentration of compound against strand transfer of HIV-1 integrase in experiment 1
[3] = molecular target: T1, Human immunodeficiency virus type 1 integrase; experiment: Inhibitory concentration of compound against strand transfer of HIV-1 integrase in experiment 2
[4] = molecular target: T1, Human immunodeficiency virus type 1 integrase; experiment: Inhibitory concentration of compound against 3'-processing of HIV-1 integrase in experiment 2

Row | SMILES | IC50 [1] [µM] | IC50 [2] [µM] | IC50 [3] [µM] | IC50 [4] [µM]
1 | O=[N+]([O-])c1c(Cl)c(O)c(Cl)c([N+](=O)[O-])c1Nc1c([N+](=O)[O-])c(Cl)c(O)c(Cl)c1[N+](=O)[O-] | 11 | 4.4 | 4 | 8.3
2 | O=[N+]([O-])c1cc(Cc2cc([N+](=O)[O-])c(O)c([N+](=O)[O-])c2)cc([N+](=O)[O-])c1O | 49.7 | 43.9 | 40.5 | 61.8
3 | O=[N+]([O-])c1cc(-c2cc([N+](=O)[O-])c(O)c([N+](=O)[O-])c2)cc([N+](=O)[O-])c1O | 61.7 | 57.3 | 35.8 | 65
4 | O=C(O)C(CSSCC(Nc1ccc([N+](=O)[O-])cc1[N+](=O)[O-])C(=O)O)Nc1ccc([N+](=O)[O-])cc1[N+](=O)[O-] (stereo not given) | 45.1 | 43 | 51 | 82
5 | O=C(c1ccc(O)cc1O)c1c([N+](=O)[O-])cc([N+](=O)[O-])cc1[N+](=O)[O-] | 66.2 | 88.2 | 54.4 | 67

Reference: ChEMBL document CHEMBL1129975, “Depsides and depsidones as inhibitors of HIV-1 integrase: discovery of novel inhibitors through 3D database searching” (J Med Chem, 1997)
